For assay [1], the target named is rat brain membrane K channels (delayed rectifier, primarily Kv1.2) (rat) (UniProt P63142). Put plainly: 125I-DTX displacement, rat brain membranes.
The target is the same in assay [2].
Assay [3] shares this target. This is another data set of the same source.
Assay [4] has as its target Kv1.3 potassium channel of human T lymphocytes (human) (UniProt P22001).
The target in assay [5] is rat brain membrane K channels (delayed rectifier, primarily Kv1.2) (rat) (UniProt P63142). The source holds these as a separate data set.
For assay [6] the target is unchanged. The source holds these as a separate data set.
For assay [7], the target named is cloned Kv1.3 channel, wild type.
The target in assay [8] is rat brain membrane K channels (delayed rectifier, primarily Kv1.2) (rat) (UniProt P63142). This is another data set of the same source.
Assay [9] shares this target. This is another data set of the same source.
The target of assay [10] is Kv1.3 potassium channel of human T lymphocytes (human) (UniProt P22001). Put plainly: 125I-ChTX displacement, Jurkat T lymphocytes.

Where two headings read alike, the source gives them in different places.

For orientation: IC50 means the midpoint of a concentration-inhibition curve. By Kd is commonly meant the constant that tells how readily two partners part at equilibrium. Low values mean higher affinity, high ones lower affinity.

As to ShK R29A (peptide), in assay [1], the IC50 ratio (analog IC50/ShK IC50) was 0.8 and the free energy difference of binding was -0.13 kcal/mol.
For ShK I4A (peptide), in that order: 0.7 and -0.2 kcal/mol.
On to ShK R24E (analog 102) (peptide), for which the IC50 ratio (analog IC50/ShK IC50) in assay [2] came out at 2.65.
Turning to ShK T6A (peptide), in assay [1], the IC50 ratio (analog IC50/ShK IC50) stood at 0.8 and the free energy difference of binding is -0.13 kcal/mol.
In the case of ShK F15A (peptide), in assay [3], the IC50 is 6 nM. Further, in assay [4], the equipotent molar ratio (analog IC50/ShK IC50) for block of Kv1.3 current amounted to 0.85. Moreover, in assay [5], the IC50 ratio (analog IC50/ShK IC50) amounted to 0.85 and the free energy difference of binding was -0.09 kcal/mol. For the same substance, in [1], the IC50 ratio (analog IC50/ShK IC50) worked out at 0.6 and the free energy difference of binding was -0.3 kcal/mol.
Regarding ShK S2A (peptide), in assay [1], the IC50 ratio (analog IC50/ShK IC50) stood at 0.5 and the free energy difference of binding is -0.41 kcal/mol.
ShK Y23F (peptide): in assay [6], the IC50 ratio (analog IC50/ShK IC50) was found to be 1.1 and the free energy difference of binding stood at 0.09 kcal/mol. The Kd in assay [7] worked out at 0.22 nM. The same substance yielded an IC50 in [3] of 9 nM. In addition, the IC50 ratio (analog IC50/ShK IC50) in assay [1] worked out at 0.8.
“ShK analog 101, triple mutant Nle21, Dat22, A23 (peptide)”: in [2], the IC50 ratio (analog IC50/ShK IC50) was over 280.
As to ShK T31A (peptide), in assay [1], the IC50 ratio (analog IC50/ShK IC50) is 0.6 and the free energy difference of binding was -0.3 kcal/mol.
With ShK A4 + A15 + A25 (peptide), in assay [1], the IC50 ratio (analog IC50/ShK IC50) turned out to be 0.2 and the free energy difference of binding was -0.94 kcal/mol. Also, in assay [8], the IC50 ratio (analog IC50/ShK IC50) was found to be 0.2 and the free energy difference of binding was -0.94 kcal/mol.
On to ShK M21A (peptide), for which, in assay [1], the IC50 ratio (analog IC50/ShK IC50) was determined as 0.6 and the free energy difference of binding was -0.3 kcal/mol.
For the substance ShK K18A (peptide), the IC50 in [3] is 10 nM. For the same substance, in [1], the IC50 ratio (analog IC50/ShK IC50) stood at 0.8 and the free energy difference of binding is -0.13 kcal/mol.
With ShK A4 + A15 (peptide), in assay [1], the IC50 ratio (analog IC50/ShK IC50) was determined as 0.5 and the free energy difference of binding is -0.41 kcal/mol. In assay [8], the IC50 ratio (analog IC50/ShK IC50) turned out to be 0.5 and the free energy difference of binding was -0.41 kcal/mol.
For ShK K22A (peptide), in assay [7], the Kd is 0.33 nM. Further, the IC50 ratio (analog IC50/ShK IC50) in assay [9] and in assay [1] was over 250 in each case. Further, the free energy difference of binding in assay [9] and in assay [1] was over 3.23 kcal/mol throughout. The IC50 is 300 nM in [3] and over 5 nM in assay [10]. Further, in [4], the equipotent molar ratio (analog IC50/ShK IC50) for block of Kv1.3 current turned out to be 2.3.
ShK F15W (peptide) showed an IC50 in assay [3] of 6 nM. In [4], the equipotent molar ratio (analog IC50/ShK IC50) for block of Kv1.3 current was found to be 0.8. For the same substance, in assay [5], the IC50 ratio (analog IC50/ShK IC50) was 0.8 and the free energy difference of binding was -0.13 kcal/mol. Also, the IC50 ratio (analog IC50/ShK IC50) in assay [1] was 1.
Turning to ShK K18E (analog 103) (peptide), in assay [2], the IC50 ratio (analog IC50/ShK IC50) stood at 4.64.

The record behind these values is patent US6077680A (dated 2000).
